Measured values from several laboratories, pooled; numbers as filed in NIAID ChemDB.

Common to all: growth or infection tests; organism: Mycobacterium tuberculosis

Inhibition is in % at the dose shown (toxicity tests: loss of growth or viability).

compound,method,measure,changes,strain or isolate,dose,conditions,result
CCOC(=O)c1ccc2c(c1)nc(-c1ccccc1)n2CCN1CCCOC1,resazurin / fluorescence,MIC,,H37Rv,,,>100 µM
CC(=O)OCC1=C(C(=O)O)N2C(=O)[C@@H](NC(=O)Cc3cccs3)[C@H]2SC1,,MIC,,Isolate 2,,,>16 µg/mL
O=C(NCc1ccccc1)c1ccccc1NS(=O)(=O)c1ccc(Cl)c(Cl)c1,resazurin,MIC bound,,H37Rv,,,>6.25 µg/mL
CN[C@@H]1[C@@H](O)[C@@H](O[C@@H]2[C@@H](O)[C@H](O[C@H]3O[C@H](CN)CC[C@H]3N)[C@@H](N)C[C@H]2N)OC[C@]1(C)O,,MIC,,9449/2007,,,1.05 µM
Cc1ccc(C(=O)/C=C/c2ccccc2)c(F)c1,MTT,MIC,,H37Rv,,14 d,32 µg/mL
C=C/C(C)=C/[C@@]1(C)SC(=O)C(C)=C1O,,MIC,,TLM-resistant,,,30 µg/mL
Cc1cc2oc3ccccc3c(=O)c2cc1[N+](=O)[O-],,inhibition,,H37Rv,8 µg/mL,,inactive
N#C/C(=C\c1ccc(Cl)cc1Cl)n1nnc2ccccc21,,MIC50,,ATCC 27294,,,>100 µM
C1=C(c2nc(-c3ccccn3)no2)c2ccccc2C12CCN(CC1CCCO1)CC2,resazurin,MIC,,H37Rv,,,12.5 µM
CCOC(=O)c1ccc2c(c1)nc(-c1cccc(-c3ccc(F)cc3)c1)n2CCN1CCCC1=O,resazurin / fluorescence,MIC,,H37Rv,,,>100 µM
COC(=O)c1c([N+](=O)[O-])ccc2oc3ccc([N+](=O)[O-])cc3c(=O)c12,,inhibition,,H37Rv,8 µg/mL,,inactive
COc1ccc(-c2noc(C3=CC4(CCN(CC5CCCO5)CC4)c4ccccc43)n2)cc1,resazurin,MIC,Drug-resistant,D-211,,,0.39 µM
FC(F)(F)c1cc(CSc2ncn[nH]2)cc(C(F)(F)F)c1,,MIC,,My 331/88,,,250 µM
CCOC(=O)c1ccc2c(c1)nc(-c1ccc([N+](=O)[O-])cc1)n2CCN1CCCC1=O,resazurin / fluorescence,MIC,,H37Rv,,,>100 µM
C=C1C(=O)O[C@@H]2C[C@@]3(C)C=CC(=O)C(=C)[C@@H]3C[C@H]12,,MIC,,EMB-R,,,>12.5 µg/mL
COc1cccc(/C=C/C(=O)c2ccc(F)cc2)c1F,resazurin,MIC,,H37Rv,,7 d,16 µg/mL
Nc1nc2c(c(=O)[nH]1)c1c(N)ncnc1n2[C@@H]1O[C@H](CO)[C@@H](O)[C@H]1O,BACTEC,inhibition,,H37Rv,12.5 µg/mL,,25%
N#C/C(=C\c1cc(F)cc(F)c1)n1nnc2ccccc21,,MIC50,,ATCC 27294,,,56.9 µM
Cc1cc2c(cc1C)NC1=C(N2)OC(c2ccc(C3OC4=C(Nc5cc(C)c(C)cc5N4)C3=O)cc2)C1=O,BACTEC,inhibition,,H37Rv,12.5 µg/mL,,-28%
CO[C@@]1(NC(=O)Cc2cccs2)C(=O)N2C(C(=O)O)=C(COC(N)=O)CS[C@@H]21,,MIC,,Isolate 2,,,>16 µg/mL
COc1cc2c(cc1Oc1ccc(OC)c3c1CC1c4c(cc(OC)c(OC)c4-3)CCN1C)CC1c3c(cc(OC)c(OC)c3-2)CCN1C,,MIC,,RMP-R,,,12.5 µg/mL
CC1(C)[C@H](C(=O)O)N2C(=O)C[C@H]2S1(=O)=O,,MIC,,Isolate 2,,,>16 µg/mL
Fc1ccc(CSc2ncn[nH]2)cc1,,MIC,,My 331/88,,,500 µM
Cc1cc(C)c2nc3c(c(C(O)C4CCCCN4)c2c1)CC/C3=C\c1ccc(Cl)cc1,resazurin,inhibition,,H37Rv,6.25 µg/mL,,40%
Nc1ccccc1-c1nnc2n1N(C(=O)c1ccncc1)C(=O)CS2,,MIC,,,,,10 µg/mL
Cc1ccc2c(=O)c3ccccc3oc2c1,,inhibition,,H37Rv,4 µg/mL,,inactive
COc1ccc(C(=O)/C=C/c2ccccc2Cl)cc1,MTT,MIC,,H37Rv,,7 d,32 µg/mL
OC(c1cc2c(Cl)cc(Cl)cc2c2cc(C(F)(F)F)ccc12)C1CCCCN1,resazurin,inhibition,,H37Rv,6.25 µg/mL,,100%
Cc1c([N+](=O)[O-])cc2c(=O)c3cc([N+](=O)[O-])ccc3oc2c1C,,inhibition,,H37Rv,4 µg/mL,,inactive
CCOC(=O)c1ccc2c(c1)nc(-c1ccc(Br)cc1)n2CCN1CCCOC1,resazurin / fluorescence,EC90,,H37Rv,,,>100 µM
COC(=O)c1ccc2oc3ccccc3c(=O)c2c1,,inhibition,,H37Rv,16 µg/mL,,inactive
N#C/C(=C\c1c(Cl)cccc1Cl)n1nnc2ccccc21,,MIC90,,ATCC 27294,,,22.2 µM
CC(C)[C@H]1CO[C@]23CC[C@H](N(Cc4ccc(C(F)(F)F)nc4)CC4CC4)C[C@H]2CCC(=O)N13,resazurin,MIC,,,,,<0.5 µM
CO[C@H]1/C=C/O[C@@]2(C)Oc3c(C)c(O)c4c(O)c(c5c(c4c3C2=O)NC2(CCN(CC(C)C)CC2)N=5)=NC(=O)/C(C)=C\C=C\[C@H](C)[C@H](O)[C@@H](C)[C@@H](O)[C@@H](C)[C@H](OC(C)=O)[C@@H]1C,,MBC,,2257 (rifampicin-susceptible),,,0.5 µg/mL
COc1ncc(F)c2nc(S(=O)(=O)Nc3c(O)cccc3C(C)O)nn12,visual reading,MIC50,INH RIF resistant,X59,,,0.5 µM
CC(C)[C@H]1CO[C@]23CC[C@H](N(Cc4ccc(C(F)(F)F)cc4)CC4CCCCN4)C[C@H]2CCC(=O)N13,resazurin,MIC,,,,,<0.5 µM
CC1(C)S[C@@H]2[C@H](NC(=O)[C@H](N)c3ccc(O)cc3)C(=O)N2[C@H]1C(=O)O,,MIC,,H37Rv,,,>16 µg/mL
CCOc1nc(-c2ccccc2)cc(-c2ccc(N3CCOCC3)cc2)c1C#N,BACTEC,MIC bound,,H37Rv,,,>12.5 µg/mL
CC1COc2c(N3CCN(C)CC3)c(F)cc3c(=O)c(C(=O)O)cn1c23,resazurin,MIC,Rifampicin-resistant,19000,,,0.14 µM
CCc1nc(N)nc(N)c1-c1ccc(Cl)cc1,resazurin / fluorescence,MIC,,H37Rv,,,>100 µM
CCC1Cn2cc([N+](=O)[O-])nc2O1,,MIC,,H37Rv-7A2 (PA-824-resistant),,,>100 µM
CCOC(=O)c1ccc2nc(-c3cncc(-c4ccc(F)cc4)c3)[nH]c2c1,resazurin / fluorescence,EC90,,H37Rv,,,>100 µM
Nc1ccc(-c2nnc3n2N(C(=O)c2ccncc2)C(=O)CS3)cc1,,MIC,,,,,100 µg/mL
CCOC(=O)c1ccc2c(c1)nc(-c1ccc(N(C)C)cc1)n2CCN1CCCOC1,resazurin / fluorescence,EC90,,H37Rv,,,>100 µM
N#C/C(=C\c1ccc(Cl)c(Cl)c1)n1nnc2ccccc21,,MIC90,,ATCC 27294,,,≥100 µM
Cc1cc(=O)c2ccc3c(ccc4c(=O)cc(C)[nH]c43)c2[nH]1,,MIC bound,,H37Rv,,,<6.25 µg/mL
CC(C)[C@H]1CO[C@]23CC[C@@H](N(CCF)Cc4ccc(C(F)(F)F)cc4)C[C@H]2CCC(=O)N13,resazurin,MIC,,,,,0.5–5 µM
O=[N+]([O-])c1cn2c(n1)OC[C@@H](OCc1ccc(OC(F)(F)F)cc1)C2,,MIC,,H37Rv-14A1-3547 (PA-824-resistant),,,0.8–1.6 µM
CC(C)[C@H]1CO[C@]23CC[C@H](N(Cc4ccc(C(F)(F)F)cc4)CC4CCN(C(=O)OC(C)(C)C)CC4)C[C@H]2CCC(=O)N13,resazurin,MIC,,,,,0.5–5 µM
C/C=C(\C)c1cnc(CC(C)C)c(=O)[nH]1,BACTEC,MIC bound,,H37Rv,,,>12.5 µg/mL
COc1ccc(C(=O)/C=C/c2ccc(F)cc2)c(F)c1,MTT,MIC,,H37Rv,,14 d,32 µg/mL
CCN(CC)CCNc1ccc(CO)c2oc3ccc(OS(=O)(=O)c4ccc(C)cc4)cc3c(=O)c12,,MIC,,TAC-R,,,6.3 µg/mL
O=[N+]([O-])c1ccccc1CSc1ncn[nH]1,,MIC,,My 331/88,,,1000 µM
CC(C)N=c1cc2n(-c3ccc(Cl)cc3)c3ccccc3nc-2cc1Nc1ccc(Cl)cc1,,MIC,,234/2005,,,0.06 µM
CC(C)[C@H]1CO[C@]23CC[C@H](OC(c4ccc(Cl)cc4)c4ccc(Cl)cc4)C[C@H]2CCC(=O)N13,resazurin,MIC,,,,,<0.5 µM
O=C1CSc2nnc(COc3ccc4ccccc4c3)n2N1C(=O)c1ccncc1,,MIC,,,,,100 µg/mL
O=C(/C=C/c1ccccc1)c1ccccc1,resazurin,MIC,,H37Rv,,21 d,32 µg/mL
CC(C)[C@H]1CO[C@]23CC[C@H](N(Cc4ccc(C(F)(F)F)cc4)C4CCC(C)(O)CC4)C[C@H]2CCC(=O)N13,resazurin,MIC,,,,,<0.5 µM
COc1ccc(C(=O)/C=C/c2ccc(F)cc2)cc1F,MTT,MIC,,H37Rv,,21 d,128 µg/mL
Nc1ccc(-c2nnc3n2N(C(=O)c2ccncc2)C(c2ccccc2)=C(c2ccccc2)S3)cc1,,MIC,,,,,100 µg/mL
CC(C)[C@H]1CO[C@]23CC[C@H](N(Cc4ccc(C(F)(F)F)cc4)CC4CCNCC4)C[C@H]2CCC(=O)N13,resazurin,MIC,,,,,<0.5 µM
Cc1c2[nH]c(C(=O)O)cc(=O)c2cc2c(=O)cc(C(=O)O)[nH]c12,BACTEC,inhibition,,H37Rv,12.5 µg/mL,,31%
CCOC(=O)c1ccc2nc(-c3ccc(O)cc3O)[nH]c2c1,resazurin / fluorescence,MIC,,H37Rv,,,>100 µM
CO/N=C(\C)c1cccc(F)c1NS(=O)(=O)c1nc2c(F)cnc(OC)n2n1,visual reading,MIC50,INH RIF resistant,P887,,,1 µM
O=C(O)c1ccc2c(=O)c3ccccc3oc2c1C(=O)O,,inhibition,,H37Rv,16 µg/mL,,inactive
NC(=O)c1cnc(Cl)cn1,,MIC,,ATCC 35828,,,32 µg/mL
Cn1cnnc1SCc1ccc(C#N)cc1,,MIC,,My 331/88,,,>1000 µM
O=C(Nc1ccc(C2=NCCCN2)cc1)c1ccc(C(=O)Nc2ccc(C3=NCCCN3)cc2)nc1,,MIC,,PZA-R,,,12.5 µg/mL
CO[C@H]1/C=C/O[C@@]2(C)Oc3c(C)c(O)c4c(O)c(c5c(c4c3C2=O)NC2(CCN(CC(C)C)CC2)N=5)=NC(=O)/C(C)=C\C=C\[C@H](C)[C@H](O)[C@@H](C)[C@@H](O)[C@@H](C)[C@H](OC(C)=O)[C@@H]1C,,MIC,,1 isolates (His526Asp),,,>5 µg/mL
O=C(O)/C=C/C(=O)NNC(=O)/C=C/C(=O)O,BACTEC,inhibition,,H37Rv,12.5 µg/mL,,2%
Cc1ccc(Cn2nnc(-c3cc([N+](=O)[O-])cc([N+](=O)[O-])c3)n2)cc1,,MIC,,7357/1998,,14 d,0.125 µM
CC(=O)O[C@H]1C(=O)[C@]2(C)[C@@H](OC(C)=O)C[C@H]3OC[C@@]3(OC(C)=O)[C@H]2[C@H](OC(=O)c2ccccc2)[C@]2(O)C[C@H](OC(=O)[C@H](OC(C)=O)[C@@H](NC(=O)c3ccccc3)c3ccccc3)C(C)=C1C2(C)C,,MIC,,PAS-R,,,3.1 µg/mL
COc1ccc(C(=O)/C=C/c2ccccc2Cl)c(F)c1,resazurin,MIC,,H37Rv,,7 d,32 µg/mL
CCCCCCCCCCCCCC1=C(O)c2ncccc2C(=O)C1=O,resazurin,inhibition,,H37Rv,6.25 µg/mL,,35%
O=C(O)c1c([N+](=O)[O-])ccc2oc3ccc([N+](=O)[O-])cc3c(=O)c12,,inhibition,,H37Rv,32 µg/mL,,inactive
COc1ccc(C(O)/C(=C/n2ccnc2)c2ccccc2)cc1OC,resazurin,MIC bound,,H37Rv,,,>6.25 µg/mL
CC/C(=C(\c1ccccc1)c1ccc(OCCN(C)C)cc1)c1ccccc1,resazurin,MIC,,H37Ra,,,3.125–6.25 µg/mL
Cc1nc(-c2nc(C)c(C(=O)NNC(=O)C[n+]3ccccc3)s2)sc1C(=O)NNC(=O)C[n+]1ccccc1.[Cl-],BACTEC,inhibition,,H37Rv,12.5 µg/mL,,-8%
Cc1ccc(-c2noc(C3=CC4(CCN(CC5CCCO5)CC4)c4ccccc43)n2)cn1,resazurin,MIC,Drug-resistant,18b+,,,1.56 µM
Cc1cc2oc3c(c2c(=O)[nH]1)C(=O)c1ccccc1C3=O,BACTEC,MIC bound,,H37Rv,,,>12.5 µg/mL
C1=C(c2nc(-c3cccnc3)no2)c2ccccc2C12CCN(CC1CCCO1)CC2,turbidity,MIC,Spiroindene-resistant,TB375,,,>31 µM
COc1cc2c(cc1O)N=CC1CCC(O)N1C2=O,BACTEC,MIC bound,,H37Rv,,,>12.5 µg/mL
N#C/C(=C\c1cccc(Cl)c1Cl)n1nnc2ccccc21,,MIC50,,ATCC 27294,,,>100 µM

ECn is the concentration giving n% inhibition of infection, replication or growth. An empty or dashed field is not shown. "inactive" is the filed call at that dose; no cut-off is given. MIC bound: limit read from a one-dose screen. A number after MIC or MFC names an inhibition level or a share of isolates. a–b is a range or a potency band. Conditions beyond the fields shown may differ between rows.